# From paper PMC5033595, “The Effectiveness of Natural Diarylheptanoids against Trypanosoma cruzi: Cytotoxicity, Ultrastructural Alterations and Molecular Modeling Studies” (PLoS ONE, 2016)
# System: T. cruzi epimastigotes
# Assay: Scanning and transmission electron microscopy of treated epimastigotes
# Assay type: cell-based, Trypanosoma cruzi
# Details: treated at IC50 concentration, 24-72 h
smiles,measurement,value
"O=C(/C=C/c1ccc(O)cc1)CC(=O)/C=C/c1ccc(O)cc1 [BDMC, bisdemethoxycurcumin]",ultrastructural changes of epimastigotes,apparent decrease in cell volume
